“And” between values parts separate entries of the source, which are not always exact repeats. Equal values may be shown once.
System: clinical isolate, N1283
Assay type: in vivo, Mycobacterium tuberculosis
Details: Study F; Mtb-N1283; 50 mg kg^-1 PO once daily, 2 weeks of treatment

Structure (SMILES): CCc1nc2ncc(C)cn2c1C(=O)NCc1ccc(N2CCN(S(=O)(=O)C(F)(F)F)C=N2)c(F)c1 [JNJ-4052]
- Log10 CFU counts in lung, individual mice: 5.15 Log10 CFU counts and 4.83 Log10 CFU counts and 5.30 Log10 CFU counts

Source: paper PMC12546632, “The role of cytochrome bc1 inhibitors in future tuberculosis treatment regimens” (Nature Communications, 2025)
